Anti-infective test results gathered from many reports (values: NIAID ChemDB through PubChem).

Shared fields: growth or infection tests; organism: Measles virus; endpoint: EC50

An empty or dashed field is not shown. ECn is the concentration giving n% inhibition of infection, replication or growth. Conditions beyond the fields shown may differ between rows.

SMILES	strain	method	cell line	value
CC(C)CS[C@H]1C[C@@H](n2cnc3c(N)ncnc32)[C@H](O)[C@@H]1O		cytopathic effect	CV-1	100 µg/mL
CN(C)c1ccc(/C=C/C=N/n2cc(C(=O)O)c3ccccc3c2=O)cc1	Edmonston	plaque count	HEP-2/L-929/VERO	>150 µM
CCCc1cc(=O)oc2cc(OC(=O)C(C)(C)C)c3c(c12)OC(C)(C)C=C3	SA	cytopathic effect	CV-1	0.6 µg/mL
CN(C)C(=O)COC(=O)Cc1ccc(OC(=O)c2ccc(N=C(N)N)cc2)cc1.COS(=O)(=O)O	Sugiyama	cytopathic effect	VERO	>500 µg/mL
Nc1ncnc2c1ncn2[C@@H]1CC[C@@H](O)[C@H]1O	SA	cytopathic effect	CV-1	>100 µg/mL
CSc1nsc(-c2ccc(OCc3ccccc3)cc2)c1C#N		plaque count	HEP-2/L-929/VERO	10 µM
COc1ccc(/C=N/n2cc(C(=O)O)c3ccccc3c2=O)cc1	Edmonston	plaque count	HEP-2/L-929/VERO	>500 µM
CSc1nsc(-c2ccc(OCCOc3ccc(C#N)cc3)cc2)c1C#N		plaque count	HEP-2/L-929/VERO	>2 µM
O=C(O)c1cn(/N=C/c2ccc(O)cc2)c(=O)c2ccccc12	Edmonston	plaque count	HEP-2/L-929/VERO	>300 µM
COc1cc(OC)c(/C=N/N=C(/N)NO)c(OC)c1.Cc1ccc(S(=O)(=O)O)cc1		plaque count	VERO	>50 µM
CSc1nsc(-c2ccc(C(F)(F)F)cc2)c1C#N	Edmonston	plaque count	HEP-2	>14 µM
O=C(O)c1cn(/N=C/c2ccccc2Br)c(=O)c2ccccc12	Edmonston	plaque count	HEP-2/L-929/VERO	>30 µM
CNc1nc(=O)c2ncn([C@@H]3O[C@H](CO)[C@@H](O)[C@H]3O)c2c(=O)[nH]1		neutral red	CV-1	>100 µM
COc1cc(OC)c(OC)cc1/C=N/N=C(/N)NO.Cc1ccc(S(=O)(=O)O)cc1		plaque count	VERO	>50 µM
CSc1nsc(-c2ccc(OCCCOc3ccc(C#N)cc3)cc2)c1C#N		plaque count	HEP-2/L-929/VERO	>2 µM
CSc1nsc(C)c1C#N	Edmonston	plaque count	HEP-2	>100 µM
CCOC(=O)c1ccc(OC(=O)CCCCCN=C(N)N)cc1.COS(=O)(=O)O	Sugiyama	cytopathic effect	VERO	>150 µg/mL
CSc1nsc(-c2ccc(OCCCCOc3ccc(C#N)cc3)cc2)c1C#N		plaque count	HEP-2/L-929/VERO	>2 µM
Nc1ncnc2c1ncn2C1CC(COP(=O)(O)O)[C@@H](O)[C@H]1O		cytopathic effect	VERO	≥10 µg/mL
CCCc1cc(=O)oc2c3c(c4c(c12)OC(C)(C)[C@H](O)[C@@H]4O)O[C@H](C)[C@@H](C)[C@@H]3O	Edmonston	cytopathic effect	CV-1	20 µg/mL
O=C(O)c1cn(/N=C/c2ccccc2Cl)c(=O)c2ccccc12	Edmonston	plaque count	HEP-2/L-929/VERO	>30 µM
CCOC(=O)c1ccc(OCCOc2ccc(-c3snc(SC)c3C#N)cc2)cc1		plaque count	HEP-2/L-929/VERO	>2 µM
Nc1ccn([C@@H]2C[C@H](CO)[C@@H](O)[C@H]2O)c(=O)n1	SSPE Niigata-1	cytopathic effect	VERO	0.9 µg/mL
CSc1nsc(-c2ccc(OCCCc3ccccc3)cc2)c1C#N		plaque count	HEP-2/L-929/VERO	10 µM
CCCc1cc(=O)oc2cc(OS(=O)(=O)c3ccc(C)cc3)cc(OS(=O)(=O)c3ccc(C)cc3)c12	MO2	cytopathic effect	CV-1	3 µg/mL
CSc1nsc(SC)c1C#N	Edmonston	plaque count	HEP-2	>12 µM
CSc1nsc(-c2ccc(OCCc3ccccc3)cc2)c1C#N		plaque count	HEP-2/L-929/VERO	10 µM
CSc1nsc(-c2ccccc2)c1C#N	Edmonston	plaque count	HEP-2	>20 µM
O=C(O)c1cn(/N=C/c2ccc(Br)cc2)c(=O)c2ccccc12	Edmonston	plaque count	HEP-2/L-929/VERO	15 µM
CCCCCCCCCCCCCCCCO[C@H]1N([C@H]2C[C@H](N=[N+]=[N-])[C@@H](CO)O2)C(=O)NC(=O)[C@]1(C)Br	Sugiyama	cytopathic effect	VERO	>500 µg/mL
CSc1nsc(-c2ccc(OCCOc3ccc([N+](=O)[O-])cc3)cc2)c1C#N		plaque count	HEP-2/L-929/VERO	>1 µM
CC(C)CS[C@@H]1C=C[C@H](n2cnc3c(N)ncnc32)C1	DAVIS	cytopathic effect	HEL	≥100 µg/mL
Nc1ncnc2c1ncn2[C@@H]1C=C[C@@H](O)[C@H]1O		cytopathic effect	CV-1	1 µg/mL
CCCc1cc(=O)oc2cc(OS(=O)(=O)c3ccc(C)cc3)cc(O)c12	MO6	cytopathic effect	CV-1	0.6 µg/mL
Nc1ncnc2c1ncn2[C@@H]1C[C@H](N)[C@@H](O)[C@H]1O	SA	neutral red	CV-1	>100 µg/mL
CSc1nsc(-c2ccc(Cl)cc2Cl)c1C#N	Edmonston	plaque count	HEP-2	>8 µM
Nc1ncnc2c1ncn2C1CC(CO)[C@@H](O)[C@H]1O		cytopathic effect	VERO	3 µg/mL
N#Cc1cc(NC(=O)c2ccccc2)c(=O)n2c1[nH]c1ccccc12	Sugiyama	plaque count	VERO	0.7 µg/mL
O=C(O)c1cn(/N=C/C=C/c2ccccc2)c(=O)c2ccccc12	Edmonston	plaque count	HEP-2/L-929/VERO	12.5 µM
Cc1nsc(C)c1C#N	Edmonston	plaque count	HEP-2	>1000 µM
N#Cc1cc(C#N)c2[nH]c3ccccc3n2c1=O	Sugiyama	plaque count	VERO	6.4 µg/mL

6 of the rows above, restated:

SMILES	strain	method	cell line	value
CCCc1cc(=O)oc2cc(OS(=O)(=O)c3ccc(C)cc3)cc(OS(=O)(=O)c3ccc(C)cc3)c12	MO2	cytopathic effect	CV-1	3 µg/mL
Nc1ncnc2c1ncn2[C@@H]1C[C@H](N)[C@@H](O)[C@H]1O	SA	neutral red	CV-1	>100 µg/mL
COc1cc(OC)c(OC)cc1/C=N/N=C(/N)NO.Cc1ccc(S(=O)(=O)O)cc1		plaque count	VERO	>50 µM
CSc1nsc(-c2ccc(C(F)(F)F)cc2)c1C#N	Edmonston	plaque count	HEP-2	>14 µM
CSc1nsc(-c2ccccc2)c1C#N	Edmonston	plaque count	HEP-2	>20 µM
N#Cc1cc(C#N)c2[nH]c3ccccc3n2c1=O	Sugiyama	plaque count	VERO	6.4 µg/mL